Measurements from US20080292586A1 (priority 2005, published 2008).
Values joined by “and” are separate entries in the source; they are usually repeats but may differ in a detail not shown here. Identical values can stand only once.

Test system: H5N1 Avian influenza virus (A/VN/1203/04)
Format: cell-based
Set-up: SI50: unit not given beside the values

Substance	IC25 [IU]	IC50 [IU]	IC50 (IU/ml)	IC50 (pg/ml) [pg/mL]	IC90 [IU]	SI50	Fold-difference compared to IC50 (Multiferon)
Interferon alpha 2a	12.08	32.08	32.08	114.64	86.06	31.2	–
Interferon beta 1a	–	–	10.69	130.01	–	–	17.24 and 23.05
